{"source": "patent US20130065857A1", "about": "“NOVEL DXR INHIBITORS FOR ANTIMICROBIAL THERAPY” (Baylor College of Medicine, priority 2009, published 2013)", "tested_on": "E. coli, Pseudomonas aeruginosa, Bacillus anthracis and Micrococcus luteus", "assay": "Antibacterial activity assay (MIC), stated over all four bacteria", "assay_type": "cell-based", "details": "span over four bacterial species; tested form: disodium salt", "data": [{"compound": "O=P(O)(O)CCc1ccc(O)c(O)c1", "values": [{"measurement": "MICs over the four bacteria", "value": "≥ 1000", "unit": "µM"}]}]}
